A mixed list of measured activities; the numbers were collected in NIAID ChemDB.

Common to all: whole-cell or culture tests; agent: Mycobacterium avium; endpoint: MIC

Blank or dashed fields: not listed here. Neighbouring rows are from separate reports.

smiles	strain	method	result
CCC(CO)NCC[C@H]1O[C@H](O[C@H]2O[C@H](CCNC(CC)CO)[C@@H](O)[C@H](O)[C@H]2O)[C@H](O)[C@@H](O)[C@@H]1O	3 to 5 clinical isolates	-	>128 µg/mL
CC(=O)/C(N=Nc1ccc(C(=O)N/N=C/c2ccc([N+](=O)[O-])o2)cc1)=C(/O)c1ccccc1	-	-	>12.5 µg/mL
COc1cccc(CSc2nnn(-c3ccc(Cl)cc3)n2)c1	CNCTC MY330/88	-	62.5 µM
CCCCCOc1ccc(NC(=O)OCCN2CCCCCC2)cc1	MY330/88	-	32 µM
O=C(CCC(=O)Nc1ccccc1)Nc1ccccc1	NO 80/72	-	500 µM
CCC(CO)NC[C@@H]1O[C@H](CO)[C@@H](O)[C@@H]1O	3 to 5 clinical isolates	-	>128 µg/mL
CC(=O)NC[C@H]1CN(c2ccc(N3CCN(c4ccc([N+](=O)[O-])s4)CC3)c(F)c2)C(=O)O1	4	-	<0.125 µg/mL
O=C1NC(Nc2ccc(Cl)cc2)=N/C1=C\c1ccc(Cl)cc1Cl	-	-	>12.5 µg/mL
CCCOc1ccccc1NC(=O)OCCN1CCCCCC1	MY330/88	-	250 µM
CC1=CC[C@@H](O)[C@]2(C)CC[C@@H]3[C@H](OC(=O)[C@H]3C)[C@@H]12	-	-	>128 µg/mL
Cc1ccc(/C=N/N=C(\N)c2ccncc2)c(C)c1	INH resistant	-	128 µg/mL
C=C1C(=O)O[C@@H]2[C@H]3C(C)=CC[C@@H](O)[C@]3(C)CC[C@@H]12	-	-	>128 µg/mL
Cc1c(CN2CCN(C)CC2)cc(-c2cccc3ccccc23)n1-c1ccccc1	103317	-	16 µg/mL
CCCCCCCOc1ccccc1NC(=O)OCC[NH+]1CCCC1	MY330/88	-	16 µM
Cc1c(CN2CCN(C)CC2)cc(-c2ccccc2)n1-c1ccccc1Cl	103317	-	>16 µg/mL
COc1ccc(CSc2nnn(-c3ccc(Br)cc3)n2)cc1	CNCTC MY330/88	-	125 µM
CC1(C)S[C@@H]2[C@H](NC(=O)[C@H](C(=O)[O-])c3ccsc3)C(=O)N2[C@H]1C(=O)[O-].[Na+].[Na+]	2 strains	-	>128 µg/mL
CCC(CO)NC[C@H]1N[C@@H](CO)[C@@H](O)[C@@H]1O	3 to 5 clinical isolates	-	>128 µg/mL
Cc1nc2scc(-c3ccco3)c2c(=O)n1/N=C/c1ccc([N+](=O)[O-])cc1	CNCTC MY330/88	-	7 µM
Cc1c(CN2CCSCC2)cc(-c2ccccc2)n1-c1cccc2ccccc12	103317	-	>16 µg/mL
Cc1ccc(/C=N/N=C(\N)c2ccncc2)cc1	INH resistant	-	32 µg/mL
C/C=N/n1c(C)nc2scc(-c3ccco3)c2c1=O	CNCTC MY330/88	-	62 µM
COc1ccc(-n2nnc(SCc3ccccc3)n2)cc1	CNCTC MY330/88	-	125 µM
O=C1NC(=NCc2ccccc2)N/C1=C\c1ccc(Cl)cc1	-	-	>12.5 µg/mL
CC1=CCC/C(C)=C/[C@H]2OC(=O)[C@@H](C)[C@@H]2CC1	-	-	128 µg/mL
N/C(=N\N=C\c1ccc([N+](=O)[O-])cc1)c1ccncc1	INH resistant	-	256 µg/mL
O=C(CCC(=O)Nc1ccc(Cl)c(Cl)c1)Nc1ccc(Cl)c(Cl)c1	NO 80/72	-	250 µM
Cc1nc2scc(-c3ccco3)c2c(=O)n1NC(=O)c1ccccc1	CNCTC MY330/88	-	110 µM
Cc1c(CN2CCN(C)CC2)cc(-c2ccccc2Cl)n1-c1ccccc1	103317	-	>16 µg/mL
N/C(=N\N=C\c1ccccc1)c1ccncc1	INH resistant	-	128 µg/mL
CC(C)c1ccc(NC(=O)CCC(=O)Nc2ccc(C(C)C)cc2)cc1	NO 80/72	-	63 µM
Cc1c(CN2CCN(C)CC2)cc(-c2ccccc2F)n1-c1ccccc1	103317	-	>16 µg/mL
N/C(=N\N=C\c1ccccc1Cl)c1ccncc1	INH resistant	-	16 µg/mL
CCCCc1ccc(NC(=O)CCC(=O)Nc2ccc(CCCC)cc2)cc1	NO 80/72	-	63 µM
COc1ccc(CSc2nnn(-c3ccc(OC)cc3)n2)cc1	CNCTC MY330/88	-	62.5 µM
Cc1c(CN2CCSCC2)cc(-c2ccccc2F)n1-c1ccccc1	103317	-	>16 µg/mL
C=C1CC[C@@H](O)[C@]2(C)CC[C@@H](C(=C)CO)[C@H](O)[C@@H]12	-	-	>128 µg/mL
C[C@H]1[C@H](C)CC[C@]2(C(=O)O)CC[C@]3(C)C(CC[C@@H]4[C@@]5(C)C[C@H](O)CC(C)(C)[C@@H]5CC[C@]43C)[C@H]12	-	resazurin	100 µg/mL
CCCCCCOc1cccc(NC(=O)OCCN(C)C)c1	MY330/88	-	32 µM
Cc1ccc(CSc2nnn(-c3ccc(C)cc3)n2)cc1	CNCTC MY330/88	-	32 µM
CCC(CO)NC[C@@H]1N[C@H](CO)[C@@H](O)[C@@H]1O	3 to 5 clinical isolates	-	>128 µg/mL
C=C1C(=O)O[C@@H]2/C=C(\C)CC/C=C(\C)CC[C@@H]12	-	-	128 µg/mL
Cc1c(CN2CCSCC2)cc(-c2ccccc2)n1-c1ccc(F)cc1	103317	-	2 µg/mL
CCCCCCC(C)(CCCC)OC(=O)c1cnc(Cl)cn1	ATCC49601	-	>256 µg/mL
Cc1nc2scc(-c3ccco3)c2c(=O)n1/N=C/C1CCCCC1	CNCTC MY330/88	-	57 µM
N/C(=N\N=C\c1cccc(F)c1)c1ccncc1	INH resistant	-	64 µg/mL
Cc1c(CN2CCSCC2)cc(-c2cccc3ccccc23)n1-c1ccccc1	103317	-	>16 µg/mL
Cc1c(CN2CCSCC2)cc(-c2cccc3ccccc23)n1-c1ccc(F)cc1	103317	-	>16 µg/mL
CSC(SSC(C)(C)C)C(N)=O	225	-	>1000 µM
COc1ccc(CSc2nnn(-c3ccc(Cl)cc3)n2)cc1	CNCTC MY330/88	-	125 µM
Cc1c(CN2CCSCC2)cc(-c2ccccc2Cl)n1-c1ccccc1	103317	-	>16 µg/mL

Again, the opening 3 rows:

smiles | strain | method | result
CCC(CO)NCC[C@H]1O[C@H](O[C@H]2O[C@H](CCNC(CC)CO)[C@@H](O)[C@H](O)[C@H]2O)[C@H](O)[C@@H](O)[C@@H]1O | 3 to 5 clinical isolates | - | >128 µg/mL
CC(=O)/C(N=Nc1ccc(C(=O)N/N=C/c2ccc([N+](=O)[O-])o2)cc1)=C(/O)c1ccccc1 | - | - | >12.5 µg/mL
COc1cccc(CSc2nnn(-c3ccc(Cl)cc3)n2)c1 | CNCTC MY330/88 | - | 62.5 µM